Pooled drug test results. Numbers come from NIAID ChemDB, via PubChem.

Shared fields: growth or infection tests; agent: Herpes simplex virus 1; method: plaque count; read-out: EC50

Blank or dashed fields: not listed here.

CN(C)c1ccc2ccc(N)nc2c1 ; cells: KB ; result: 5 µg/mL
CC[C@@H](C(C)C)[C@H](O)[C@@H](O)[C@@H](C)[C@H]1CC[C@H]2[C@@H]3CC(=O)[C@@]4(O)C[C@@H](Br)CC[C@]4(C)[C@H]3CC[C@]12C ; strain: F ; cells: VERO ; result: 18.7 µM
CCOC(=O)Sc1nsc(-c2ccccc2)c1C#N ; cells: VERO ; result: >5.8 µg/mL
CC[C@@H](C(C)C)[C@H](O)[C@@H](O)[C@@H](C)[C@H]1CC[C@H]2[C@@H]3CC(=O)[C@@]4(O)C[C@H](O)[C@H](O)C[C@]4(C)[C@H]3CC[C@]12C ; strain: F ; cells: VERO ; result: 161.6 µM
Nc1nc2c(ncn2COC(CO)CO)c(=O)[nH]1 ; strain: 1760 ; cells: VERO H ; result: 0.3 µM
O=C(NCc1ccc(Cl)cc1)c1cn2c3c(cc(CN4CCOCC4)cc3c1=O)OC(c1cccnc1)C2 ; strain: 11893 (ACV-resistant) ; cells: HFF ; result: 5.6 µM
N#Cc1c(SCCCCSc2nsc(-c3ccccc3)c2C#N)nsc1-c1ccccc1 ; cells: VERO ; result: >4.9 µg/mL
O=C(O[C@@H]1Cc2c(O)cc(O)cc2O[C@@H]1c1cc(O)c(O)c(O)c1)c1cc(O)c(O)c(O)c1 ; strain: KOS ; cells: VERO ; result: 38.6 µM
Nc1nc(=S)n([C@H]2C[C@H](O)[C@@H](CO)O2)cc1Br ; strain: KOS ; cells: MRC-5 ; result: 21.2 µM
[N-]=[N+]=NC[C@H]1O[C@@H](n2cc(Cl)c(=O)[nH]c2=O)C[C@@H]1O ; cells: VERO ; result: >100 µM
CC[C@@H](C(C)C)[C@H](O)[C@@H](O)[C@@H](C)[C@H]1CC[C@H]2[C@@H]3CC(=O)[C@@]4(O)C[C@@H](OC(C)=O)CC[C@]4(C)[C@H]3CC[C@]12C ; strain: F ; cells: VERO ; result: 107.3 µM
Nc1nc(=S)n([C@@H]2O[C@H](CO)[C@@H](O)[C@@H]2O)cc1F ; strain: TK- ; cells: MRC-5 ; result: >361 µM
N#Cc1c(SSc2nsc(-c3ccccc3)c2C#N)nsc1-c1ccccc1 ; cells: VERO ; result: >8.69 µg/mL
O=C(NCc1ccc(Cl)cc1)c1cn(N2CCOCC2)c2ccc(CN3CCOCC3)cc2c1=O ; strain: KOS ; cells: HFF ; result: 3.3 µM
Nc1nc(=S)n([C@H]2C[C@H](O)[C@@H](CO)O2)cc1Cl ; strain: TK- ; cells: MRC-5 ; result: >362 µM
CC(=O)Nc1ccc2c(C)cc(N(C)C)nc2c1 ; cells: KB ; result: 6 µg/mL
[N-]=[N+]=N[C@@H]1[C@H](O)[C@@H](CO)C[C@H]1n1ccc(N)nc1=O ; cells: VERO ; result: >400 µM
Cn1cc(C(=O)NCc2ccc(Cl)cc2)c(=O)c2cc(CN3CCOCC3)ccc21 ; strain: SC16-S1 (acyclovir-resistant) ; cells: HFF ; result: 3.5 µM
CSc1nsc(-c2ccccc2)c1C#N ; cells: VERO ; result: >4.64 µg/mL
COCc1cn([C@H]2C[C@H](O)[C@@H](CO)O2)c(=O)nc1N ; strain: 76 ; cells: VERO ; result: 26 µM
Nc1nc2c(ncn2[C@@H]2C[C@H](CO)[C@H]2CO)c(=O)[nH]1 ; strain: KOS/PFA^R-1 ; cells: WI-38 ; result: 0.4–0.8 µM
Nc1nc(=S)n([C@@H]2O[C@H](CO)[C@@H](O)[C@@H]2O)cc1Br ; strain: KOS ; cells: RPMI8226 ; result: 139 µM
CC[C@@H](C(C)C)[C@@H](O)[C@H](O)[C@@H](C)[C@H]1CC[C@H]2[C@@H]3CC(=O)[C@H]4C[C@H](O)[C@H](O)C[C@]4(C)[C@H]3CC[C@]12C ; strain: B2006 (TK-) ; cells: VERO ; result: 64.9 µM
O=c1[nH]c(=S)n([C@H]2C[C@H](O)[C@@H](CO)O2)cc1Cl ; strain: KOS ; cells: MRC-5 ; result: 14.4 µM
Nc1ccc2ccc(N)nc2c1 ; cells: KB ; result: 4 µg/mL
Nc1nc(=S)n([C@@H]2O[C@H](CO)[C@@H](O)[C@@H]2O)cc1I ; strain: TK- ; cells: MRC-5 ; result: 6.23 µM
NC[C@H]1O[C@@H](n2ccc(=O)[nH]c2=O)C[C@@H]1O ; cells: VERO ; result: >100 µM
CC[C@@H](C(C)C)[C@@H](O)[C@H](O)[C@@H](C)[C@H]1CC[C@H]2[C@@H]3CC(=O)[C@H]4C[C@@H](OC(C)=O)CC[C@]4(C)[C@H]3CC[C@]12C ; strain: B2006 (TK-) ; cells: VERO ; result: 14.9 µM
O=c1[nH]c(=S)n([C@H]2C[C@H](O)[C@@H](CO)O2)cc1Br ; strain: KOS ; cells: MRC-5 ; result: 1.21 µM
NC[C@H]1O[C@@H](n2cc(Cl)c(=O)[nH]c2=O)C[C@@H]1O ; cells: VERO ; result: <100 µM
Cc1ccc2ccc(N(C)C)cc2n1 ; cells: KB ; result: 9 µg/mL
CC[C@@H](C(C)C)[C@@H](O)[C@H](O)[C@@H](C)[C@H]1CC[C@H]2[C@@H]3CC(=O)[C@@]4(O)C[C@H](O)[C@H](O)C[C@]4(C)[C@H]3CC[C@]12C ; strain: F ; cells: VERO ; result: >40.4 µM
Cc1cccc(C)c1N(CC(=O)Nc1ccc(-c2ncon2)cc1)C(C)C1CCS(=O)(=O)CC1 ; strain: KOS ; cells: Vero Cells + HEF cells ; result: 0.01 µM
Cc1cn([C@@H]2O[C@H](CO)[C@H]2CO)c(=O)[nH]c1=O ; strain: E-377 ; cells: HFF ; result: 0.05 µg/mL

5 of the rows above, restated:

structure,strain,cells,result
CC[C@@H](C(C)C)[C@H](O)[C@@H](O)[C@@H](C)[C@H]1CC[C@H]2[C@@H]3CC(=O)[C@@]4(O)C[C@@H](OC(C)=O)CC[C@]4(C)[C@H]3CC[C@]12C,F,VERO,107.3 µM
O=c1[nH]c(=S)n([C@H]2C[C@H](O)[C@@H](CO)O2)cc1Br,KOS,MRC-5,1.21 µM
CC[C@@H](C(C)C)[C@@H](O)[C@H](O)[C@@H](C)[C@H]1CC[C@H]2[C@@H]3CC(=O)[C@@]4(O)C[C@H](O)[C@H](O)C[C@]4(C)[C@H]3CC[C@]12C,F,VERO,>40.4 µM
NC[C@H]1O[C@@H](n2cc(Cl)c(=O)[nH]c2=O)C[C@@H]1O,,VERO,<100 µM
CSc1nsc(-c2ccccc2)c1C#N,,VERO,>4.64 µg/mL

a–b is a range or a potency band. ECn is the concentration giving n% inhibition of infection, replication or growth. Neighbouring rows are from separate reports.